A mixed list of measured activities; the numbers were collected in NIAID ChemDB.

Shared fields: whole-cell or culture tests; species: HIV-1

ECn is the concentration giving n% inhibition of infection, replication or growth. Lines come from different laboratories, so protocols vary.

{"smiles": "Nc1nc(=O)n([C@H]2CS[C@@H](CO)O2)cc1F", "strain": "LAI", "cell line": "PBMC", "endpoint": "EC50", "result": "0.84 µM"}
{"smiles": "O=C1CNCc2cc(Cl)ccc2N1", "read by": "cytopathic effect / MTT", "cell line": "MT-4", "endpoint": "EC50", "result": ">1100 µM"}
{"smiles": "O=C(N[C@H]1c2ccccc2OC[C@H]1O)[C@H](Cc1cccnc1)C[C@H](O)CN1CCN(Cc2ccn(-c3ccc(Cl)cc3)c2)C[C@H]1C(=O)NCC(F)(F)F", "read by": "p24", "strain": "V-18C Clinical isolate", "cell line": "MT-4", "endpoint": "EC95", "mutations": "PR-L10I M36I N37D M46I R57K L63P A71V G73S I84V L90M I93L", "result": "≤0.008 µM"}
{"smiles": "CC(C)C1C(=O)Nc2ccc(Cl)cc2CN1C(=O)OC(C)(C)C", "read by": "cytopathic effect / MTT", "cell line": "MT-4", "endpoint": "EC50", "result": ">100 µM"}
{"smiles": "Cc1cccc(-n2ccc(CN3CCN(C[C@@H](O)C[C@@H](Cc4cccnc4)C(=O)N[C@H]4c5ccccc5OC[C@H]4O)[C@H](C(=O)NCC(F)(F)F)C3)c2)c1", "read by": "p24", "strain": "Q-60C Clinical isolate", "cell line": "MT-4", "endpoint": "EC95", "mutations": "PR-L10I N37S R41K M46I I54V I62V L63P A71V V77I V82A L90M I93L", "result": "≤0.008 µM"}
{"smiles": "Cc1nc(CCCCCCC(=O)c2ccccc2)n2nc(-n3cccc3)ccc12", "read by": "p24", "strain": "RF", "cell line": "C8166", "endpoint": "EC50", "result": "0.005 µM"}
{"smiles": "CC(C)OC(=O)OCOP(=O)(CO[C@H](C)Cn1cnc2c(N)ncnc21)OCOC(=O)OC(C)C", "read by": "p24", "strain": "P18 FDDA-resistant RT P119S V179D L214F", "cell line": "MT-2", "endpoint": "EC50", "mutations": "RT-P119S V179D L214F", "result": "0.007 µM"}
{"smiles": "COc1ccc(S(=O)(=O)N(CC(C)C)C[C@@H](O)[C@H](Cc2ccccc2)NC(=O)O[C@H]2CO[C@H]3OCC(F)(F)[C@H]32)cc1", "setting": "clinical isolate, multidrug-resistant", "strain": "Clinical isolate", "cell line": "PBMC", "endpoint": "EC50", "mutations": "L10I I15V K20R L24I M36I M46L I54V I62V L63P K70Q V82A L89M", "result": "0.002 µM"}
{"smiles": "CCc1c([Se]c2ccccc2)n(COCc2ccccc2)c(=O)[nH]c1=O", "read by": "cytopathic effect", "strain": "TIBO-RS", "cell line": "MT-2", "endpoint": "EC50", "result": "0.28 ± 0.12 µM"}
{"smiles": "Cc1ccccc1-n1ccc(CN2CCN(C[C@@H](O)C[C@@H](Cc3cccnc3)C(=O)N[C@H]3c4ccccc4OC[C@H]3O)[C@H](C(=O)NCC(F)(F)F)C2)c1", "read by": "p24", "strain": "K-60C Clinical isolate", "cell line": "MT-4", "endpoint": "EC50", "mutations": "PR-L10I M46I I54V Q58E L63P I64V V77I V82F I84V L90M I93L", "result": "<0.125 µM"}
{"smiles": "CC(C)C1NCc2cc(Cl)ccc2NC1=O", "read by": "cytopathic effect / MTT", "cell line": "MT-4", "endpoint": "EC50", "result": ">1047 µM"}
{"smiles": "CNc1ccc2c(C)nc(CCCCCCC(=O)c3ccccc3)n2n1", "read by": "cytopathic effect", "strain": "RF", "cell line": "MT-4", "endpoint": "EC50", "result": ">25 µM"}
{"smiles": "C[C@H]1C(=O)Nc2ccc(Cl)cc2CN1Cc1ccccc1", "read by": "cytopathic effect / MTT", "cell line": "MT-4", "endpoint": "EC50", "result": "81 µM"}
{"smiles": "C1CNCCNCCCN[C@H]([C@@H]2CNCCCNCCNCCCN2)CNC1", "read by": "plaque count / antigen", "strain": "IIIB", "cell line": "CD4+HELA + HeLa", "endpoint": "EC50", "result": "0.43 µM"}
{"smiles": "CC(C)=CCN1c2cc(Cl)cc3[nH]c(=S)n(c23)C[C@@H]1C", "cell line": "MT-4", "endpoint": "EC50", "mutations": "RT-D67N K70R T215Y K219Q K103N", "result": "<0.8 µM"}
{"smiles": "CC1NCc2cc(Cl)ccc2NC1=O", "read by": "cytopathic effect / MTT", "cell line": "MT-4", "endpoint": "EC50", "result": ">1187 µM"}
{"smiles": "Cc1nc(CCCCCCCc2ccccc2)n2nc(Cl)ccc12", "read by": "cytopathic effect", "strain": "RF", "cell line": "MT-4", "endpoint": "EC50", "result": ">250 µM"}
{"smiles": "CC(C)CN(C[C@@H](O)[C@H](Cc1ccccc1)NC(=O)O[C@H]1CCOC1)S(=O)(=O)c1ccc(N)cc1", "strain": "NL4-3", "cell line": "MT-4", "endpoint": "EC50", "mutations": "A28S L33F V82I GRL04810-resistant", "result": ">1 µM"}
{"smiles": "Cc1ccc(-n2ccc(CN3CCN(C[C@@H](O)C[C@@H](Cc4cccnc4)C(=O)N[C@H]4c5ccccc5OC[C@H]4O)[C@H](C(=O)NCC(F)(F)F)C3)c2)cc1", "read by": "p24", "strain": "K-60C Clinical isolate", "cell line": "MT-4", "endpoint": "EC50", "mutations": "PR-L10I M46I I54V Q58E L63P I64V V77I V82F I84V L90M I93L", "result": "<0.015 µM"}
{"smiles": "Nc1nc(Cl)c2ncn([C@H]3C=C[C@@H](CO)C3)c2n1", "read by": "cytopathic effect / propidium iodide", "strain": "IIIB", "cell line": "MT-4", "endpoint": "EC50", "result": "7.6 µM"}
{"smiles": "O=C1N(Cc2cccc([N+](=O)[O-])c2)[C@H](Cc2ccccc2)[C@H](O)[C@@H](O)[C@@H](Cc2ccccc2)N1Cc1cccc([N+](=O)[O-])c1", "read by": "hybridisation", "strain": "RF", "cell line": "MT-2", "endpoint": "EC50", "result": "<0.97 µM"}
{"smiles": "CC(C)=CCN1Cc2cc(Cl)ccc2NC(=O)C1C(C)C", "read by": "cytopathic effect / MTT", "cell line": "MT-4", "endpoint": "EC50", "result": "3.2 µM"}
{"smiles": "Nc1ncnc2c1ncn2[C@H]1C=C[C@@H](CO)C1", "read by": "cytopathic effect / propidium iodide", "strain": "IIIB", "cell line": "MT-4", "endpoint": "EC50", "result": "12 µM"}
{"smiles": "CCc1c(Sc2ccccc2)n(COCc2ccccc2)c(=O)[nH]c1=O", "read by": "cytopathic effect", "strain": "TIBO-RS", "cell line": "MT-2", "endpoint": "EC50", "result": "0.25 ± 0.01 µM"}
{"smiles": "N#CN=C1N(Cc2cccc(C#N)c2)[C@H](Cc2ccccc2)[C@H](O)[C@@H](O)[C@@H](Cc2ccccc2)N1Cc1cccc(C#N)c1", "read by": "hybridisation", "strain": "RF", "cell line": "MT-2", "endpoint": "EC50", "result": "<3.1 µM"}
{"smiles": "O=c1[nH]cnc2c1ncn2[C@H]1C=C[C@@H](CO)C1", "read by": "cytopathic effect / propidium iodide", "strain": "IIIB", "cell line": "MT-4", "endpoint": "EC50", "result": ">200 µM"}
{"smiles": "Cc1nc(CCCCCCC(=O)c2ccccc2)n2nc(-n3ccnn3)ccc12", "read by": "cytopathic effect", "strain": "RF", "cell line": "MT-4", "endpoint": "EC50", "result": "0.72 µM"}
{"smiles": "CNC(=O)N1Cc2cc(Cl)ccc2NC(=O)[C@@H]1C", "read by": "cytopathic effect / MTT", "cell line": "MT-4", "endpoint": "EC50", "result": ">713 µM"}
{"smiles": "Cc1nc(CCCCCOC(=O)c2ccccc2)n2nc(Cl)ccc12", "read by": "p24", "strain": "RF", "cell line": "C8166", "endpoint": "EC50", "result": "1.1 µM"}
{"smiles": "CC(C)Oc1ccc(Cc2ccccc2)cc1C(=O)CC(=O)C(=O)O", "read by": "p24", "strain": "IIIB", "cell line": "MT-4", "endpoint": "EC50", "result": "<0.1 µM"}
{"smiles": "O=C1N(Cc2ccc(OCc3ccccc3)cc2)[C@H](Cc2ccccc2)[C@H](O)[C@@H](O)[C@@H](Cc2ccccc2)N1Cc1ccc(OCc2ccccc2)cc1", "read by": "hybridisation", "strain": "RF", "cell line": "MT-2", "endpoint": "EC90", "result": ">70 µM"}
{"smiles": "O=C(NCc1ccc(F)cc1)c1nc(N2CCCCS2(=O)=O)c2cccnc2c1O", "read by": "p24", "strain": "BaL", "cell line": "Macrophage", "endpoint": "EC50", "result": "<0.035 µM"}
{"smiles": "Cc1cn(-c2ccc3c(C)nc(CCCCCCC(=O)c4ccccc4)n3n2)cn1", "strain": "RF", "cell line": "MT-4", "endpoint": "EC50", "result": "0.4 µM"}
{"smiles": "Cc1ccnc2c1NC(=O)c1cccnc1N2C1CC1", "read by": "antigen", "strain": "74V", "cell line": "C8166", "endpoint": "EC50", "mutations": "L74V", "result": "0.0355 µM"}
{"smiles": "COc1nc(N)nc2c1ncn2[C@H]1C=C[C@@H](CO)C1", "read by": "cytopathic effect / propidium iodide", "strain": "IIIB", "cell line": "MT-4", "endpoint": "EC50", "result": "3 µM"}
{"smiles": "CC(C)CCN1C(=NC#N)N(CCC(C)C)[C@H](Cc2ccccc2)[C@H](O)[C@@H](O)[C@H]1Cc1ccccc1", "read by": "hybridisation", "strain": "RF", "cell line": "MT-2", "endpoint": "EC50", "result": "<1.1 µM"}
{"smiles": "C1CNCCNCCCN(CCCN2CCCNCCNCCCNCC2)CCNC1", "read by": "cytopathic effect / MTT", "strain": "IIIB", "cell line": "MT-4", "endpoint": "EC50", "result": "0.248 µM"}
{"smiles": "C[C@H]1C(=O)Nc2ccc(Cl)cc2CN1CC1CC1", "read by": "cytopathic effect / MTT", "cell line": "MT-4", "endpoint": "EC50", "result": ">100 µM"}
{"smiles": "C=CCSc1nc(N)nc2c1ncn2[C@H]1C=C[C@@H](CO)C1", "read by": "cytopathic effect / propidium iodide", "strain": "IIIB", "cell line": "MT-4", "endpoint": "EC50", "result": "7.3 µM"}
{"smiles": "CCc1c([Se]c2ccccn2)n(COCc2ccccc2)c(=O)[nH]c1=O", "read by": "cytopathic effect", "strain": "TIBO-RS", "cell line": "MT-2", "endpoint": "EC50", "result": "0.56 ± 0.22 µM"}
{"smiles": "O=C1N(CC2CCCC2)[C@H](Cc2ccccc2)[C@H](O)[C@@H](O)[C@@H](Cc2ccccc2)N1CC1CCCC1", "read by": "hybridisation", "strain": "RF", "cell line": "MT-2", "endpoint": "EC50", "result": "<1.7 µM"}
{"smiles": "O=Nc1c(-c2c(O)[nH]c3ccccc23)[nH]c2ccccc12", "read by": "p24", "strain": "IIIB", "cell line": "PM1", "endpoint": "EC50", "result": "~0.5 µM"}
{"smiles": "Nc1nc(NC2CC2)c2ncn([C@H]3C=C[C@@H](CO)C3)c2n1", "read by": "plaque count", "strain": "HXB2", "cell line": "HeLa + HELA CD4+", "endpoint": "EC50", "result": "5.8 µM"}
{"smiles": "Cc1nc(CCCCCCC(O)c2ccccc2)n2nc(Cl)ccc12", "read by": "syncytia", "strain": "RF", "cell line": "C8166", "endpoint": "EC50", "result": "<0.08 µM"}